Pooled drug test results. Numbers come from NIAID ChemDB, via PubChem.

Common to all: tests in culture; agent: Mycobacterium tuberculosis

MIC bound: limit read from a one-dose screen. An empty or dashed field is not shown. Inhibition is in % at the dose shown (toxicity tests: loss of growth or viability). Lines come from different laboratories, so protocols vary. ECn is the concentration giving n% inhibition of infection, replication or growth.

compound | dose | endpoint | strain or isolate | method | cell line | value
N=c1c2c(ncn1N)Oc1c(c(-c3ccccc3)nn1-c1ccccc1)C2c1ccc(Cl)cc1 |  | MIC | H37Rv |  | VERO | 3.13 µg/mL
COc1ccc(OC)c(CCNCCNC23CC4CC(CC(C4)C2)C3)c1 |  | MIC |  |  |  | 25 µM
O=[N+]([O-])c1ccc2sc3ccccc3c2c1 |  | MIC | H37Rv |  |  | >100 µg/mL
CC(Cc1c[nH]c2ccccc12)NCCNC1CCCc2ccccc21 |  | MIC |  |  |  | 50 µM
O=C1c2ccccc2OC(c2ccccc2)C1(Br)Br |  | EC50 | H37Rv |  |  | >12.5 µg/mL
Cc1ccc(S(=O)(=O)N(C)c2ccc(N)cc2)cc1 |  | MIC | H37Rv |  |  | >100 µg/mL
CC1CC(=O)c2cc(-c3ccccc3)oc2C1 |  | MIC bound | H37Rv | BACTEC |  | >12.5 µg/mL
c1csc(CCNCCNC2C3CC4CC(C3)CC2C4)c1 |  | MIC |  |  |  | 25 µM
CCCCCCCCCCCCCCCCCCOCC(COP(=O)(O)OCC[N+](C)(C)C)OC | 12.5 µg/mL | inhibition | H37Rv | BACTEC |  | 14%
Nc1ccc(Nc2ccc(O)cc2)c(S(=O)(=O)O)c1 |  | MIC | H37Rv |  |  | 100 µg/mL
COc1ccc(/C=C/C(=O)c2cc(C(=O)O)ccc2O)cc1 | 12.5 µg/mL | inhibition | H37Rv |  |  | 0%
O=C1O[C@H](CO)[C@@H](O)[C@H](O)[C@H]1O |  | MIC | H37Rv |  |  | >100 µg/mL
CC1=C(O)C(=O)C(C2=C(O)C(=O)C(C)=C(O)C2=O)=C(O)C1=O |  | MIC bound | H37Rv | BACTEC |  | >12.8 µg/mL
O/N=C(\c1ccccc1)C(O)c1ccccc1 |  | MIC | H37Rv |  |  | >100 µg/mL
C=C=C(CCCC)C(=O)O |  | MIC bound | H37Rv | BACTEC |  | >12.5 µg/mL
Clc1ccccc1CCNCCNCCNc1ccccc1 |  | MIC |  |  |  | 50 µM
CCOC(=O)Nc1cc2nncnc2c(NC(=O)OCC)n1 | 12.5 µg/mL | inhibition | H37Rv |  |  | 0%
CCN(CC)CCN1C(=O)c2cccc3cc(N)cc(c23)C1=O | 6.25 µg/mL | inhibition | H37Rv | resazurin |  | 9%
COc1ccc(-c2oc3cc(OC)cc(OC)c3c(=O)c2-c2c(-c3ccc(OC)cc3)oc3cc(OC)cc(OC)c3c2=O)cc1 |  | EC50 | H37Rv |  |  | >12.5 µg/mL
C1=C(CCNCCNCC(c2ccccc2)c2ccccc2)CCCC1 |  | MIC |  |  |  | 25 µM
CC(=O)Nc1n[n+]([O-])c2cc(C)ccc2[n+]1[O-] |  | MIC | H37Rv | resazurin |  | 3.13 µg/mL
Nc1ccc(-c2nc3ccccc3nc2-c2ccc(N)cc2)cc1 |  | MIC | H37Rv |  |  | >100 µg/mL
COc1ccc(N2C(=O)C(=O)N(C)C2=O)c2ccccc12 |  | MIC bound | H37Rv | BACTEC |  | >12.5 µg/mL
CCCCC(CC)CN1CN(CC(CC)CCCC)CC(C)(NCCNCCc2ccc(O)c(O)c2)C1 |  | MIC |  |  |  | 12.5 µM
O=C(O)CC(C(=O)O)S(=O)(=O)[O-].[K+] |  | MIC | H37Rv |  |  | >100 µg/mL
CCOC(=O)C1Cc2c(OC)cc(OC)cc2OC1=O | 12.5 µg/mL | inhibition | H37Rv | BACTEC |  | 2%
CCNCc1ccc(OC)cc1.Cl |  | MIC | H37Rv |  |  | >100 µg/mL
N[C@H](C(=O)O)[C@H]1ON=C(Cl)[C@@H]1O |  | MIC | H37Rv |  |  | 12.5 µg/mL
O=C1NC(CCCl)C(=O)NC1CCCl |  | MIC | H37Rv |  |  | >100 µg/mL
CO[C@H]1/C=C/O[C@@]2(C)Oc3c(C)c(O)c4c(O)c(c(/C=N/N5CCN(C/C=C/c6ccccc6)CC5)c(O)c4c3C2=O)NC(=O)/C(C)=C\C=C\[C@H](C)[C@H](O)[C@@H](C)[C@@H](O)[C@@H](C)[C@H](OC(C)=O)[C@@H]1C |  | MBC | 3113 (rifampin-sensitive) |  |  | 0.1 µg/mL
Nc1c(Br)cc2c(c1Br)C(=O)c1ccccc1C2=O |  | MIC | H37Rv |  |  | >100 µg/mL
Fc1ccc(CCNCCNCCCCc2ccccc2)cc1 |  | MIC |  |  |  | 25 µM
O=C(/C=C/c1cccnc1)c1ccc(F)cc1 |  | EC50 |  |  |  | <12.5 µg/mL
Cc1cc2cc3c(C)cc(=O)oc3c(C)c2o1 |  | MIC bound | H37Rv | BACTEC |  | >12.8 µg/mL
CCOC(=O)Nc1cc(NC(=O)OCC)c([N+](=O)[O-])c(NC(c2ccccc2)c2ccccc2)n1 | 12.5 µg/mL | inhibition | H37Rv |  |  | 5%
CC(C)c1ccc(/C=C/C(=O)O)cc1 |  | MIC | H37Rv |  |  | 100 µg/mL
O=C1O[C@@H]([C@H](O)[C@H](O)CO)C(O)=C1O | 6.25 µg/mL | inhibition | H37Rv |  |  | -4%
CCOc1cc(C)cc(C)c1N(C)C(=O)CCC(=O)O |  | MIC | H37Rv |  |  | >100 µg/mL
CN(c1ccccc1Cl)S(=O)(=O)c1ccccc1[N+](=O)[O-] | 12.5 µg/mL | inhibition | H37Rv | BACTEC |  | 0%
CCOC(=O)Nc1cc(N=[N+]=[N-])c2n[nH]nc2n1 |  | EC50 | H37Rv |  |  | >12.5 µg/mL
Nc1cccc(-c2csc(N)n2)c1 |  | MIC | H37Rv |  |  | >100 µg/mL
COC(=O)c1cc(Cl)ccc1OCC(O)CNc1ccc(Cl)cc1C(=O)c1ccccc1 |  | MIC bound | H37Rv | resazurin |  | >6.25 µg/mL
CC(C)c1ccc2c(c1)CC[C@H]1[C@](C)(CNCCN[C@@H](C)C3CCCCC3)CCC[C@]21C |  | MIC |  |  |  | 25 µM
CCC(C)(C)c1ccc(Oc2cccc(C(=O)N(C)c3ccc(O)cc3)c2)cc1 |  | MIC | H37Rv |  |  | >100 µg/mL
CO[C@H]1/C=C/O[C@@]2(C)Oc3c(C)c(O)c4c(=O)c(c5oc6cc(N7CCN(CC(C)C)CC7)cc(=O)c6nc5c4c3=C2O)NC(=O)/C(C)=C\C=C\[C@H](C)[C@H](O)[C@@H](C)[C@@H](O)[C@@H](C)[C@H](OC(C)=O)[C@@H]1C |  | MBC | 9 (rifampin-resistant) |  |  | 0.025 µg/mL
CCCCCCCCCCCCCC1=C(O)c2ncccc2C(=O)C1=O | 6.25 µg/mL | inhibition | H37Rv | resazurin |  | 35%
C=CCNc1nc(Cl)nc(NCC=C)n1 |  | MIC | H37Rv |  |  | >100 µg/mL
CCOC(=O)C1=C(C(=O)OCC)C(O)(C(=O)OCC)C(C(=O)OCC)O1 | 12.5 µg/mL | inhibition | H37Rv | BACTEC |  | 10%
Cn1ccccc1=O |  | MIC | H37Rv |  |  | >100 µg/mL
Nc1nc(N)c2nc3c(nc2n1)CCCCCCCCCC3 | 12.5 µg/mL | inhibition | H37Rv | BACTEC |  | -1%
CC(=O)c1ccc(NC(=O)c2ccccc2)cc1 |  | MIC | H37Rv |  |  | >100 µg/mL
O=C1CN(CO)C(=O)N1CO |  | MIC bound | H37Rv | BACTEC |  | >12.5 µg/mL
Cc1ccc(NC(=O)c2ccccc2)cc1 |  | MIC | H37Rv |  |  | >100 µg/mL
CCOC(=O)Nc1cc(N)c2[nH]c(C)nc2n1 | 12.5 µg/mL | inhibition | H37Rv |  |  | 0%
COC(=O)/C(=N\NC(C)(C)C)C(C(=O)OC)C(=O)C(=O)Nc1nc2ccc([N+](=O)[O-])cc2s1 |  | MIC bound | H37Rv | resazurin |  | >6.25 µg/mL
CCOC(=O)Nc1cc(N)c2[nH]c(=S)n(N)c2c1 | 12.5 µg/mL | inhibition | H37Rv |  |  | 0%
O=C(O)CCC(CCC(=O)O)C(=O)O |  | MIC | H37Rv |  |  | >100 µg/mL

Repeating the final 3 entries:

compound	dose	endpoint	strain or isolate	method	cell line	value
COC(=O)/C(=N\NC(C)(C)C)C(C(=O)OC)C(=O)C(=O)Nc1nc2ccc([N+](=O)[O-])cc2s1		MIC bound	H37Rv	resazurin		>6.25 µg/mL
CCOC(=O)Nc1cc(N)c2[nH]c(=S)n(N)c2c1	12.5 µg/mL	inhibition	H37Rv			0%
O=C(O)CCC(CCC(=O)O)C(=O)O		MIC	H37Rv			>100 µg/mL